System: CHO-K1 cells
Experiment: Cell penetrating activity: flow cytometry of labeled cargo uptake into CHO-K1 cells
Format: cell-based
Conditions: CHO-K1, 30 min 37° C., 50 μM peptide with dextranAF488, CROPAF488 or dsRNAfluorescein (FIGS. 34-38)

NVFKDNTISDKISFNFSDK
cell penetrating activities of mutant peptides: the cell penetrating activities remained intact

Reference: US10709758B2 (priority 2015, dated 2020)
